First the molecules themselves.
B1: BD55-6034 (protein)
chain 1: EVQLLESGGGLVRPGGSLRLSCAASGFTFNNYAMHWVRQAPGKGLEWVSGISSRGDLKFYADYARGRFTISRDNSKNTLFLQMSSLSAEDTAVYYCAKEDNYYDSTGYYYVSWGQGVLVTVSS
chain 2: DIQMTQSPSSLSASVGDRVTITCRASQTIGTYLNWYQQKPGKAPKLLIYKASSLQSGVPSRFSGSGSGTDFTLTISSLQPEDSATYYCQQSYSTPPYTFAQGTKLEIK
B2: BD55-1145 (protein)
chain 1: QVQLVQSGAEVKKPGSSVKVSCKASGGTFSHYGISWVRQAPGQGPEWMGGIIPLFGAPNYAQKFQGRVTITADESTRTAYMELSSLRSEDTAVYYCARDRDIVLVTMGVPRRNAFDVWGQGTMVTVSS
chain 2: ETVMTQSPATLSLSPGERATLSCRASHNVNTNLAWYQQKPGQAPRLLIYGASTRATGIPARFSGSGSGTDFTLTISSLQSEDFAVYYCQEYNKWPLTFGGGTKVEIK
B3: BD55-6049 (protein)
chain 1: QLQLQESGPGLVKPSETLSLTCTVSGGSISSSGYYWGWIRQSPGKGLESIGIIYYTVTTFYNPSLESRVTISADTSKNQLSLKLTSATAADTAVYYCARLTGVDNGDSRHNWFDPWGQGTLVTVSS
chain 2: QSVLTQPPSVSGAPGQRVTISCTGSSSNIGAGYDVHWYQQLPGAAPKLLIYSNTNRPSGVPDRFSGSRSATSASLVITGLQAEDEADFYCQSYDFSLRSRVFGGGTKLTVL
B4: BD55-6041 (protein)
chain 1: QITLKESGPTLVKPTQTLTLTCSFSGFSLTTSGVGVGWFRQPPGKALEWLALIYWDDDKRYSPSLKSRLTVTKDTSKNLVVLSMTNMDPVDTATYYCAHNRPQPGIPALGTWFDPWGQGTLVTVSS
chain 2: QSVLTQPPSVSEAPRQRVTISCSGSSSNIGNNAVNWYQQLPGKAPKLLIYYDDLLPSGVSDRFSGSRSGTSASLAISGLQSQDEADYYCASWDDSLNGPVFGGGTKLTVL
B5: BD55-6054 (protein)
chain 1: QVQLQESGPGLVKPSQTLSLTCTVSGGSISSGDYYWSWIRQPPGKGLEWIGYIYYSVRTDYNPSLKSRVTISVDTSKNQFSLKLSSVTAADTAVYYCASRFTFTGYDILTGIRLATGAFDIWGQGTMVTVSP
chain 2: EIVLTQSPGTLSLSPGERASLSCRASQGISSSSLAWYQQKPGQAPRLVIYDASSRAPGIPDRFSGTGSGTDFTLTISRLEPEDFVLYYCQQYGSSPLTFGGGTKVEIK
B6: BD55-6043 (protein)
chain 1: EVQLVESGGGLVQPGGSLRLSCAASGFTVSNNYMSWVRQAPGKGLEWVSVIYSADSTHYADSVRGRFTISRDNSKNTVDFQMNSLRAEDTAVYYCARGIVAANGDYFDCWGQGTLVTVSS
chain 2: SYVLTQPPSVSVAPGKTARITCGGNNIGSKSVHWYQQRPGQAPVLVIYYDSDRPSGIPERFSGSNSGNTATLTITRVEAGDEADYFCQVWDGSSHHHWVFGGGTKLTVL

Human monoclonal antibodies against the spike receptor-binding domain (heavy:light variable regions). IC50 against pseudoviruses bearing the spike of naturally observed variants; lower = stronger; >10 µg/ml means not reached at the top dose. No active / inactive call. The stated detection limit is 0.0005 µg/ml; values near or below 0.001 µg/ml lie at the floor of the assay. Some results are limits rather than exact numbers.

For the first assay, the target named is SARS-CoV-2 Omicron BA.1 spike pseudovirus. Briefly: pseudovirus neutralization IC50; higher = weaker neutralization. The procedure: (§1)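 Single-round VSV luciferase pseudovirus mixed with antibody dilutions for 1 h and put on Huh-7 cells for about a day; IC50 from the dose curve.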
Turning to B1, the “pseudovirus neutralization IC50” value was greater than 10 µg/mL.
Regarding B2, the “pseudovirus neutralization IC50” value is greater than 10 µg/mL.
As for B3, the “pseudovirus neutralization IC50” value is greater than 10 µg/mL.
On to B4, for which the “pseudovirus neutralization IC50” value is greater than 10 µg/mL.
Same read-out and setting: the figure for B5 is greater than 10 µg/mL; for B6 it is greater than 10 µg/mL.

For the next assay, the target named is SARS-CoV-2 Omicron BA.2 spike pseudovirus. Described as above. On the procedure: as §1
Regarding B1, the “pseudovirus neutralization IC50” value was greater than 10 µg/mL.
As to B2, the “pseudovirus neutralization IC50” value was greater than 10 µg/mL.
Still for that read-out and setting: next, B3: greater than 10 µg/mL; B4: greater than 10 µg/mL; B5: greater than 10 µg/mL.
Take B6: the “pseudovirus neutralization IC50” value is greater than 10 µg/mL.

The next assay has as its target SARS-CoV-2 Omicron BA.2.75 spike pseudovirus. Described as above. On the procedure:
as §1
As for B1, the “pseudovirus neutralization IC50” value was greater than 10 µg/mL.
Regarding B2, the “pseudovirus neutralization IC50” value is greater than 10 µg/mL.
In the case of B3, the “pseudovirus neutralization IC50” value was greater than 10 µg/mL.
Take B4: the “pseudovirus neutralization IC50” value is greater than 10 µg/mL.
The same measure, in the same setting: the figure for B5 is greater than 10 µg/mL; for B6 it is greater than 10 µg/mL.

Another assay deals with SARS-CoV-2 Omicron BA.5 spike pseudovirus. The description is as above. On the procedure: as §1
For B1, the “pseudovirus neutralization IC50” value is greater than 10 µg/mL.
Consider B2, for which the “pseudovirus neutralization IC50” value was greater than 10 µg/mL.
As to B3, the “pseudovirus neutralization IC50” value is greater than 10 µg/mL.
B4: the “pseudovirus neutralization IC50” value is greater than 10 µg/mL.
With B5, the “pseudovirus neutralization IC50” value is greater than 10 µg/mL.
Still for that read-out and setting: next, B6: greater than 10 µg/mL.

The target of the next assay is SARS-CoV-2 Omicron BQ.1.1 spike pseudovirus. Described as above. On the procedure: as §1
Regarding B1, the “pseudovirus neutralization IC50” value is greater than 10 µg/mL.
Take B2: the “pseudovirus neutralization IC50” value is greater than 10 µg/mL.
For B3, the “pseudovirus neutralization IC50” value was greater than 10 µg/mL.
Turning to B4, the “pseudovirus neutralization IC50” value is greater than 10 µg/mL.
Turning to B5, the “pseudovirus neutralization IC50” value was greater than 10 µg/mL.
Consider B6, for which the “pseudovirus neutralization IC50” value is greater than 10 µg/mL.

Another assay concerns the target SARS-CoV-2 Omicron XBB spike pseudovirus. The assay is described as above. On the procedure:
as §1
On to B1, for which the “pseudovirus neutralization IC50” value is greater than 10 µg/mL.
Still for that read-out and setting: the figure for B2 is greater than 10 µg/mL; for B3 it is greater than 10 µg/mL; for B4 it is greater than 10 µg/mL.
As for B5, the “pseudovirus neutralization IC50” value was greater than 10 µg/mL.
The same measure, in the same setting: next, B6: greater than 10 µg/mL.

In the next assay the target is SARS-CoV-2 early D614G spike pseudovirus. The assay is described as above. On the procedure:
as §1
Regarding B1, the “pseudovirus neutralization IC50” value is greater than 10 µg/mL.
For the molecule B2, the “pseudovirus neutralization IC50” value was greater than 10 µg/mL.
B3: the “pseudovirus neutralization IC50” value is greater than 10 µg/mL.
Same read-out and setting: the figure for B4 is 1.37 µg/mL; for B5 it is greater than 10 µg/mL.
Still for that read-out and setting: next, B6: greater than 10 µg/mL.
